Compound potency records, mixed from different reports. Data source: NIAID ChemDB in PubChem.

Shared fields: toxicity to cultured cells; endpoint: CC50

CCn is the concentration with n% toxicity to the cells. An empty or dashed field is not shown. Neighbouring rows are from separate reports.

structure | cell line | method | setting | value
O=c1ccn(CCOCP(=O)(O)O)c(=O)[nH]1 | HB611 |  |  | >200 µM
Nc1ccn([C@@H]2CC[C@H](CO)O2)c(=O)n1 | 2.2.15 |  |  | >20 µM
COc1cc([C@@H]2c3cc4c(cc3[C@H](OC(C)=O)[C@@H]3COC(=O)[C@@H]23)OCO4)cc(OC(C)=O)c1OC(C)=O | HT-29 |  |  | 2.2 µM
O=C1c2c(O)cccc2-c2nn(CCNCCO)c3ccc(NCCNCCO)c1c23 | VERO |  |  | 3.43 µg/mL
CCCCCCCCCCCCCCCCOP(=O)([O-])OCC[N+](C)(C)Cc1ccccc1 | MCF | MTT |  | 76 µM
C1CCNCC1.S=C(S)N1CCCCC1 | VERO |  |  | 13.8 µg/mL
Nc1cc(OCCOCP(=O)(O)O)nc(N)n1 | HepAD38 |  |  | >379 µM
COc1cc([C@@H]2c3cc4c(cc3[C@H](OC(C)=O)[C@@H]3COC(=O)[C@@H]23)OCO4)cc2nc3cc(C)c(C)cc3nc12 | HT-29 |  |  | 4.8 µM
COc1cc(Cl)nc(NC(=S)NC(=O)c2ccc(Cl)cc2F)n1 | MDCK | MTS |  | >300 µM
COC(=O)[C@@H]1[C@H](c2cc(OC)c3nc4ccccc4nc3c2)c2cc3c(cc2C2=NOC[C@@H]21)OCO3 | MEL-28 |  |  | 10 µM
O=c1c2cc(O)c(O)cc2oc2cc(O)cc(O)c12 | P-388 | sulforhodamine / absorbance |  | 12.34 µM
O=C1Nc2ccc(Cl)cc2C(c2ccccc2)=NC1NC(=O)N1CCCCC1 | HEP-2 |  |  | 5 µM
C[C@@H](COc1cc(N)nc(N)n1)OCP(=O)(O)O | HepAD38 |  |  | >360 µM
S=C(Nc1ccccc1)c1ccccn1 | VERO |  |  | >10 µg/mL
COC(=O)[C@@H]1[C@H](c2cc(OC)c3nccnc3c2)c2cc3c(cc2C2=NOC[C@@H]21)OCO3 | A549 |  |  | 2.8 µM
Clc1ccc2nnnn2n1 | VERO |  |  | 0.71 µg/mL
Nc1nc(=O)n(CCOCP(=O)(O)O)cc1-c1ccccc1 | HB611 |  |  | >200 µM
Nc1cc(OCCOCP(=O)(O)O)nc(N)n1 | CCRF-CEM |  |  | <10 µM
COC1=CC([C@@H]2c3cc4c(cc3[C@H](OC(C)=O)[C@@H]3COC(=O)[C@H]32)OCO4)=CC(=O)C1=O | P-388 |  |  | 0.59 µM
Nc1ccn(C[C@@H](CO)OCP(=O)(O)O)c(=O)n1 | HSB-2 | MTT |  | 42 µM
CC1N(C)CCC1(C)CN1c2ccccc2Sc2ccccc21.Cl | VERO |  |  | 2.6 µg/mL
Nc1nc(NC2CC2)cc(OCCOCP(=O)(O)O)n1 | HeLa S3 |  |  | <10 µM
O=c1[nH]c(=O)n([C@H]2C[C@H](O)[C@@H](CO)O2)cc1/C=C/Br | CBMC | MTT |  | 228 µM
CCc1nc2ccc(NCCN(C)C)c3c(=O)c4ccccc4n1c23 | VERO |  |  | 3.38 µg/mL
CCCCCCCCCCCCCCCC[N+](C)(C)Cc1ccccc1 | HUVEC | MTT |  | 7.5 µM
Cc1ccc(/C=N/NC(=O)c2ccncc2)cc1 | VERO |  |  | >62.5 µg/mL
CC(C)[C@H](C(=O)NC(=S)Nc1nc(Cl)cc(Cl)n1)c1ccc(Cl)cc1 | MDCK | MTS |  | >300 µM
CC(C)(C)CC(C)(C)c1ccc(OCCOP(=O)([O-])OCC[N+](C)(C)Cc2ccccc2)cc1 | MCF | MTT |  | >100 µM
Cc1ccc(N2C(c3ccccc3)=CC(=C3C=CC(=O)C=C3)C=C2c2ccccc2)cc1 | VERO |  |  | 13 µg/mL
O=c1c2cc(O)ccc2oc2cc(O)cc(O)c12 | P-388 | sulforhodamine / absorbance |  | 44.96 µM
CC1OC2CC(=O)OC2C2=C1C(=O)c1c(O)cccc1C2=O | VERO |  |  | 0.4 µg/mL
CC(C)(C)C(=O)OCOP(=O)(COCCn1cnc2c(N)ncnc21)OCOC(=O)C(C)(C)C | CBMC | MTT |  | 0.3 µM
Nc1ccnc2c1ncn2CCOCP(=O)(O)O | HB611 |  |  | 261 µM
CCOc1cc(C)nc2nc(=NC(=O)c3ccc(-c4ccccc4Cl)o3)sn12 | MDCK | MTS |  | >300 µM
Nc1nc(N)c2ncn(CCOCP(=O)(O)O)c2n1 | CBMC | MTT |  | 30 µM
O=C(NC1N=C(c2ccccc2)c2ccccc2NC1=O)c1cn[nH]c1 | HEP-2 |  |  | 8.3 µM
Nc1nc(OCCOCP(=O)(O)O)cc(=O)n1CCOCP(=O)(O)O | L1210 |  |  | <10 µM
CC(C)CC[C@@]1(C)C(=O)C(C2=NS(=O)(=O)c3cc(NS(C)(=O)=O)ccc3N2)=C(O)c2ccccc21 | RFP-NLS-IPS |  |  | 16.5 µM
C/C(=C\C=C\C(C)[C@H]1CC[C@@]2(C)[C@@H]3CC[C@H]4C(C)(C)C(=O)CC[C@]4(C)C3=CC[C@]12C)C(=O)O | ASK (Atlantic salmon kidney) | sulforhodamine / absorbance |  | >50 µM
COC(=O)[C@H]1C2CON=C2c2cc3c(cc2[C@H]1c1cc(OC)c(OC)c(OC)c1)OCO3 | HT-29 |  |  | 11 µM
CCCC1(CN2c3ccccc3Sc3ccccc32)CCN(CC)C1.Cl | VERO |  |  | 3.53 µg/mL
CC(C)=CC[C@H]1C[C@]2(C[C@H]3CCC(C)(C)C=C3C)C(=O)C3=C(OC(C)(C)CC3)[C@@](C(=O)c3ccccc3)(C2=O)C1(C)C | MCF-7 | sulforhodamine / absorbance |  | >50 µM
C[C@H](NC(=O)[C@@H](O)c1cc(F)cc(F)c1)C(=O)N[C@@H]1C(=O)N(C)c2ccccc2-c2ccccc21 | RFP-NLS-IPS |  |  | >10 µM
COc1cc([C@@H]2c3cc4c(cc3[C@H](OC(C)=O)[C@@H]3COC(=O)[C@@H]23)OCO4)cc2c1OC1(N3CCCC3)CCCCC1O2 | MEL-28 |  |  | 2.02 µM
FC(F)(F)c1[nH]nc(-c2cc3ccccc3o2)c1N=NN1CCOCC1 | VERO |  |  | <1.84 µg/mL
Cc1cc(OCCOCP(=O)(O)O)nc(N)n1 | HEPAD79 |  |  | >380 µM
COc1cc([C@@H]2c3cc4c(cc3[C@H](OC(C)=O)[C@@H]3COC(=O)[C@@H]23)OCO4)cc(OC)c1OC | A549 |  |  | 0.55 µM
Nc1nc(N)c2ncn(CC(CO)OCP(=O)(O)O)c2n1 | HB611 |  |  | 32 µM
CSc1ccccc1C(=O)NC1N=C(c2ccccc2)c2ccccc2NC1=O | HEP-2 |  |  | 9.4 µM
CCN=c1cc2oc3cc(NCC)c(C)cc3c(-c3ccccc3C(=O)OCC)c-2cc1C | VERO |  |  | 3.13 µg/mL
Cc1cc(C)nc(NC(=S)NC(=O)c2ccc(Cl)cc2F)n1 | MDCK | MTS |  | >300 µM
CCOc1ccc(Nc2nc3c(s2)C(=O)c2ccccc2C3=O)cc1 | VERO |  |  | 5 µg/mL
CC(C)(C)CC(C)(C)c1ccc(OCCOP(=O)([O-])OCCC[N+](C)(C)Cc2ccccc2)cc1 | MDA | MTT |  | >100 µM
CCN(CC)CCNc1ccc(CO)c2sc3ccccc3c(=O)c12 | VERO |  |  | 5.7 µg/mL
Nc1ncnc2c1ncn2CCCCP(=O)(O)O | HB611 |  |  | >400 µM
CCOc1cc(C)nc(NC(=S)NC(=O)c2ccc(-c3ccc([N+](=O)[O-])cc3)o2)n1 | MDCK | MTS |  | >300 µM
N#CCc1c(N)nc(N)nc1OCCOCP(=O)(O)O | HEPAD79 |  |  | >330 µM
CC1C(=O)N(O)c2ncc(Br)cc2C1O | HepDES19 | MTS | 7 d | 37.7 µM
CCOc1cc(OCC)nc(NC(=S)NC(=O)c2ccc(-c3ccccc3Cl)o2)n1 | MDCK | MTS |  | >300 µM
Cc1cc2cccnc2c2ncccc12 | VERO |  |  | <2.05 µg/mL
COc1cc(O)cc2oc3cc(O)c(O)cc3c(=O)c12 | 1A2 | XTT / absorbance |  | >456 µM
Cc1cc(=O)n(CCOCP(=O)(O)O)c(N)n1 | CCRF-CEM |  |  | <10 µM
Nc1nc(=O)n([C@@H]2CC[C@H](CO)O2)cc1F | 2.2.15 |  |  | 42 µM
[CH3][Sn]([CH3])([Br])[Br].c1cnc2c(c1)ccc1cccnc12 | VERO |  |  | 1.43 µg/mL
N=c1ncn(CC(CO)OCP(=O)(O)O)c2nc[nH]c12 | HB611 |  |  | >200 µM
CC(C)(C)NC(=O)NC(=S)NC(=O)c1c(F)cccc1F | MDCK | MTS |  | >300 µM
Nc1cc(OCCOCP(=O)(O)O)nc(=O)[nH]1 | HEPAD79 |  |  | >356 µM
COc1ccc(CC(N=Cc2ccc3c(c2)OCO3)C(=O)NC2C(CO)OC(n3cnc4c(N(C)C)ncnc43)C2O)cc1 | VERO |  |  | 5.52 µg/mL
COc1cc([C@@H]2c3cc4c(cc3[C@H](OC(C)=O)[C@@H]3COC(=O)[C@@H]23)OCO4)cc2nc3ccccc3nc12 | MEL-28 |  |  | 1 µM
Cc1cn(CC2C=CC(CS[As](C)C)O2)c(=O)[nH]c1=O | VERO |  |  | 3.69 µg/mL
Nc1nc2c(ncn2CCOCP(=O)(O)O)c(=O)[nH]1 | CBMC | MTT |  | 6 µM
Cc1cc(C(C#N)c2ccc(Cl)cc2)c(Cl)cc1NC(=O)c1cc(I)cc(I)c1O | VERO |  |  | 10 µg/mL
Cc1[nH]c(=S)nc2c1ncn2CCOCCP(=O)(O)O | HB611 |  |  | >400 µM
COc1ccc(CCC(=O)NC2N=C(c3ccccc3)c3ccccc3NC2=O)cc1 | HEP-2 |  |  | 5 µM
CC1=C(C)C(=O)C(CC2=C(C)C(=O)C(C)=C(C)C2=O)=C(C)C1=O | VERO |  |  | 7.1 µg/mL
Nc1nc(OCCOCP(=O)(O)O)cc(OCCOCP(=O)(O)O)n1 | L1210 |  |  | <10 µM

For reference, 9 entries again:

structure,cell line,method,setting,value
O=c1[nH]c(=O)n([C@H]2C[C@H](O)[C@@H](CO)O2)cc1/C=C/Br,CBMC,MTT,,228 µM
C[C@H](NC(=O)[C@@H](O)c1cc(F)cc(F)c1)C(=O)N[C@@H]1C(=O)N(C)c2ccccc2-c2ccccc21,RFP-NLS-IPS,,,>10 µM
O=c1ccn(CCOCP(=O)(O)O)c(=O)[nH]1,HB611,,,>200 µM
CCOc1cc(C)nc(NC(=S)NC(=O)c2ccc(-c3ccc([N+](=O)[O-])cc3)o2)n1,MDCK,MTS,,>300 µM
CCc1nc2ccc(NCCN(C)C)c3c(=O)c4ccccc4n1c23,VERO,,,3.38 µg/mL
Clc1ccc2nnnn2n1,VERO,,,0.71 µg/mL
CSc1ccccc1C(=O)NC1N=C(c2ccccc2)c2ccccc2NC1=O,HEP-2,,,9.4 µM
Nc1ncnc2c1ncn2CCCCP(=O)(O)O,HB611,,,>400 µM
CCCCCCCCCCCCCCCCOP(=O)([O-])OCC[N+](C)(C)Cc1ccccc1,MCF,MTT,,76 µM